# HIV-1 1203 Vif substitutions under APOBEC3G selection

Vif of 1203 (a subtype B primary isolate), residues 12-115; positions count from the first residue of the whole protein:
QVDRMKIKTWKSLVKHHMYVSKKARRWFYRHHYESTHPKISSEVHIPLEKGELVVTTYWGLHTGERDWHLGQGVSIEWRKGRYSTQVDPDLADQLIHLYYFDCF

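A pool of vif mutants was passaged twice, 72 h each, on SupT1 cells that express APOBEC3G. Frequencies after the second round, in three biological replicates, were compared with the merged pool after the first round. Changes do not touch integrase, since the pol overlap was removed.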

Values are log2 enrichment relative to wild type (0); lower means weaker defence against APOBEC3G and poorer growth. A change reads original residue, position, new residue. All changes here are to lysine. The median of three replicates is given. Input reads are the counts in the merged round-one pool, before selection. Positive scores are uncertain; some enriched variants did not exclude APOBEC3G in a separate test. Some changes are missing from the data or left out. The scan is noisy: the rank correlation of replicates is about 0.4 to 0.65, and variants with under about 50 input reads tend to read too high.

With Q12K (input reads 22) the assay gave 1.39. R15K (input reads 27) gave 0.70. For M16K (input reads 41) the result was -1.17. I18K (input reads 394) gave -2.26. With H27K (input reads 246) the assay gave -1.45.

M29K (input reads 281) gave -0.66. For V31K (input reads 343) the result was -0.28. R36K (input reads 455) gave -1.16. For F39K (input reads 345) the result was -1.91. Y44K (input reads 219) gave -2.35.

With S46K (input reads 364) the assay gave -2.12. For P49K (input reads 443) the result was -1.78. For H56K (input reads 116) the result was -1.72. L59K (input reads 180) read -2.41. E60K (input reads 329) read -2.00.

With E63K (input reads 179) the assay gave -1.81. T68K (input reads 19) read 1.61. G71K (input reads 143) read 1.29. With H73K (input reads 70) the assay gave -2.59. T74K (input reads 298) gave -2.88.

L81K (input reads 21) read -0.20. Q83K (input reads 1388) gave -0.35. V85K (input reads 31) gave -0.59. S86K (input reads 52) gave 1.47. R90K (input reads 50) gave -0.36.

G92K (input reads 16342) gave -2.64. For T96K (input reads 95) the result was -3.40. With Q97K (input reads 243) the assay gave -2.80. For V98K (input reads 314) the result was -2.65. With D99K (input reads 18) the assay gave 0.11.

For D101K (input reads 696) the result was -0.24. I107K (input reads 258) read -2.20. With H108K (input reads 159) the assay gave -2.74. L109K (input reads 30) read -3.34. F112K (input reads 175) read -2.44.

For F115K (input reads 85) the result was -2.01.

Values reported by Langley et al. 2025, preprint (doi:10.1101/2025.10.20.683452).